Assay results published in publication PMC3466270, “Stacking Interactions between Carbohydrate and Protein Quantified by Combination of Theoretical and Experimental Methods” (PLoS ONE, 2012).

Assays:
[1] = molecular target: RSL W31A mutant (Ralstonia solanacearum); assay: AUC
[2] = molecular target: Ralstonia solanacearum lectin (RSL), wild type (Ralstonia solanacearum); assay: AUC

RSL W31A mutant (natural protein) gave a stoichiometry N [1] of 3.
“Ralstonia solanacearum lectin (RSL), wild type (from UniProt A0A0S4TLR1 1-91) (natural protein)” gave a stoichiometry N [2] of 3.
